A mixed list of measured activities; the numbers were collected in NIAID ChemDB.

Shared fields: tests in culture; species: HIV-1; read by: cytopathic effect / trypan blue; measure: EC50

Conditions beyond the fields shown may differ between rows. ECn: concentration that inhibits the pathogen or its effect by n%.

Nc1nc(F)c2ncn([C@H]3CC[C@@H](CO)O3)c2n1 ; strain or isolate: BaL ; cells: MM + M/M ; value: <2 µM
Cc1cn([C@H]2C=C[C@@H](COP(=O)(OC[C@@H]3C=C[C@H](n4cc(C)c(=O)[nH]c4=O)O3)Oc3ccc(S(C)(=O)=O)cc3)O2)c(=O)[nH]c1=O ; strain or isolate: IIIB ; cells: MT-4 ; value: 1.8 µM
COC(=O)[C@@H](CC(C)C)NP(=O)(OC[C@H]1C=C[C@@H](n2cnc3c(N)ncnc32)C1)Oc1ccccc1 ; strain or isolate: IIIB ; cells: MT-4 ; value: 1.24 µM
Cc1cn([C@H]2C[C@H](N=[N+]=[N-])[C@@H](CO)O2)c(=O)[nH]c1=O ; strain or isolate: NMR15 ; cells: MT-4 ; value: 0.003 µM
COC(=O)C[C@@H](NP(=O)(OC[C@H]1C=C[C@@H](n2cnc3c(N)ncnc32)C1)Oc1ccccc1)C(=O)OC ; strain or isolate: IIIB ; cells: MT-4 ; value: 3.9 µM
Cc1cn([C@@H]2O[C@H](CO)C3(OS(=O)(=O)C=C3N)[C@H]2O)c(=O)[nH]c1=O ; strain or isolate: HE ; cells: MT-4 ; value: >300 µM
Cc1cn([C@H]2C[C@H](N=[N+]=[N-])[C@@H](CO[Si](C)(C)C(C)(C)C)O2)c(=O)n(CC(=O)O)c1=O ; strain or isolate: IIIB ; cells: MT-4 ; value: >50 µM
Cc1cn([C@H]2C[C@H](N=[N+]=[N-])[C@@H](CO)O2)c(=O)[nH]c1=O ; strain or isolate: IIIB/LAI ; cells: MT-4 ; value: 0.003 µM
Cc1cn([C@H]2C=C[C@@H](CO[Si](C)(C)C(C)(C)C)O2)c(=O)n(CC(=O)O)c1=O ; strain or isolate: IIIB ; cells: MT-4 ; value: >10 µM
Nc1nc2c(ncn2[C@H]2CC[C@@H](CO)O2)c(=O)[nH]1 ; strain or isolate: IIIB ; cells: MT-2 ; value: >50 µM
Cc1cn([C@@H]2O[C@H](CO[Si](C)(C)C(C)(C)C)C3(OS(=O)(=O)C=C3N)[C@H]2O[Si](C)(C)C(C)(C)C)c(=O)n(C)c1=O ; strain or isolate: IIIB ; cells: MOLT-4 ; value: 0.017 µM
CC(C)(C)[Si](C)(C)OC[C@@H]1CC[C@H](n2cnc3c(=O)n(CC(=O)OCc4ccccc4)cnc32)O1 ; strain or isolate: IIIB ; cells: MT-4 ; value: >10 µM
Cc1cn([C@H]2C[C@H](N=[N+]=[N-])[C@@H](CO)O2)c(=O)[nH]c1=O ; strain or isolate: IIIB ; cells: ATH8 ; value: <5 µM
CC(C)(C)[Si](C)(C)OC[C@H]1O[C@@H](n2cnc3c(=O)n(CC(=O)O)cnc32)[C@H](O[Si](C)(C)C(C)(C)C)[C@@H]1O ; strain or isolate: IIIB ; cells: MT-4 ; value: ≥50 µM
CC(C)[C@H](NC(=O)N(C)Cc1ccccn1)C(=O)N[C@@H](Cc1ccccc1)[C@H](O)[C@H](O)[C@H](Cc1ccccc1)NC(=O)[C@@H](NC(=O)N(C)Cc1ccccn1)C(C)C ; strain or isolate: IIIB ; cells: ATH8 ; value: <4 µM
CS(=O)(=O)c1ccc(OP(=O)(OC[C@@H]2C=C[C@H](n3ccc(N)nc3=O)O2)OC[C@@H]2C=C[C@H](n3ccc(N)nc3=O)O2)cc1 ; strain or isolate: IIIB ; cells: MT-4 ; value: 5.3 µM
Cc1cn([C@@H]2O[C@H](CO[Si](C)(C)C(C)(C)C)[C@@H](O)[C@H]2O[Si](C)(C)C(C)(C)C)c(=O)n(CCO)c1=O ; strain or isolate: IIIB ; cells: MT-4 ; value: 31 µM
Nc1ncnc2c1ncn2[C@H]1C=C[C@@H](CO)O1 ; strain or isolate: IIIB ; cells: MT-4 ; value: 5 µM
COC(=O)[C@H](C)NP(=O)(OC[C@H]1C=C[C@@H](n2cnc3c(N)ncnc32)C1)Oc1ccccc1 ; strain or isolate: IIIB ; cells: MT-4 ; value: 0.045 µM
Cc1cn([C@@H]2O[C@H](CO[Si](C)(C)C(C)(C)C)[C@@H](O)[C@H]2O[Si](C)(C)C(C)(C)C)c(=O)n(CC(=O)O)c1=O ; strain or isolate: IIIB ; cells: MT-4 ; value: 5.3 µM
Nc1nc(N)c2ncn([C@H]3CC[C@@H](CO)O3)c2n1 ; strain or isolate: IIIB ; cells: ATH8 ; value: <200 µM
Cc1cn([C@@H]2O[C@H](CO[Si](C)(C)C(C)(C)C)C3(OS(=O)(=O)C=C3N)[C@H]2O)c(=O)[nH]c1=O ; strain or isolate: IIIB ; cells: MT-4 ; value: >40 µM
Nc1ncnc2c1ncn2[C@H]1CC[C@@H](CO)O1 ; strain or isolate: IIIB ; cells: MT-4 ; value: 4.7 µM
CC(C)(C)[Si](C)(C)OC[C@H]1O[C@@H](n2ccc(=O)n(CC(=O)O)c2=O)[C@H](O)[C@@H]1O[Si](C)(C)C(C)(C)C ; strain or isolate: IIIB ; cells: MT-4 ; value: >10 µM
OC[C@@H]1CC[C@H](n2cnc3c(Cl)ncnc32)O1 ; strain or isolate: IIIB ; cells: ATH9 + ATH8 ; value: <20 µM
Cc1cn([C@@H]2O[C@H](COC(=O)c3ccccc3)[C@@H](O)[C@H]2OC(=O)c2ccccc2)c(=O)n(CC(=O)O)c1=O ; strain or isolate: IIIB ; cells: MT-4 ; value: >50 µM
C[C@H](NP(=O)(OC[C@H]1C=C[C@@H](n2cnc3c(N)ncnc32)C1)Oc1ccccc1)C(=O)OC(C)(C)C ; strain or isolate: IIIB ; cells: MT-4 ; value: 8.19 µM

Repeating the final 3 entries:

structure,strain or isolate,cells,value
OC[C@@H]1CC[C@H](n2cnc3c(Cl)ncnc32)O1,IIIB,ATH9 + ATH8,<20 µM
Cc1cn([C@@H]2O[C@H](COC(=O)c3ccccc3)[C@@H](O)[C@H]2OC(=O)c2ccccc2)c(=O)n(CC(=O)O)c1=O,IIIB,MT-4,>50 µM
C[C@H](NP(=O)(OC[C@H]1C=C[C@@H](n2cnc3c(N)ncnc32)C1)Oc1ccccc1)C(=O)OC(C)(C)C,IIIB,MT-4,8.19 µM